Data taken from the supplement of paper PMC11732987, “Enantioselective OTUD7B fragment discovery through chemoproteomics screening and high-throughput optimisation” (Communications Chemistry, 2025).
Only a part is listed here, and it is no random draw.

Sequences of proteins named here, by UniProt entry; tags and fusion partners are left off.
UniProt Q86UV5, whole entry, looked up: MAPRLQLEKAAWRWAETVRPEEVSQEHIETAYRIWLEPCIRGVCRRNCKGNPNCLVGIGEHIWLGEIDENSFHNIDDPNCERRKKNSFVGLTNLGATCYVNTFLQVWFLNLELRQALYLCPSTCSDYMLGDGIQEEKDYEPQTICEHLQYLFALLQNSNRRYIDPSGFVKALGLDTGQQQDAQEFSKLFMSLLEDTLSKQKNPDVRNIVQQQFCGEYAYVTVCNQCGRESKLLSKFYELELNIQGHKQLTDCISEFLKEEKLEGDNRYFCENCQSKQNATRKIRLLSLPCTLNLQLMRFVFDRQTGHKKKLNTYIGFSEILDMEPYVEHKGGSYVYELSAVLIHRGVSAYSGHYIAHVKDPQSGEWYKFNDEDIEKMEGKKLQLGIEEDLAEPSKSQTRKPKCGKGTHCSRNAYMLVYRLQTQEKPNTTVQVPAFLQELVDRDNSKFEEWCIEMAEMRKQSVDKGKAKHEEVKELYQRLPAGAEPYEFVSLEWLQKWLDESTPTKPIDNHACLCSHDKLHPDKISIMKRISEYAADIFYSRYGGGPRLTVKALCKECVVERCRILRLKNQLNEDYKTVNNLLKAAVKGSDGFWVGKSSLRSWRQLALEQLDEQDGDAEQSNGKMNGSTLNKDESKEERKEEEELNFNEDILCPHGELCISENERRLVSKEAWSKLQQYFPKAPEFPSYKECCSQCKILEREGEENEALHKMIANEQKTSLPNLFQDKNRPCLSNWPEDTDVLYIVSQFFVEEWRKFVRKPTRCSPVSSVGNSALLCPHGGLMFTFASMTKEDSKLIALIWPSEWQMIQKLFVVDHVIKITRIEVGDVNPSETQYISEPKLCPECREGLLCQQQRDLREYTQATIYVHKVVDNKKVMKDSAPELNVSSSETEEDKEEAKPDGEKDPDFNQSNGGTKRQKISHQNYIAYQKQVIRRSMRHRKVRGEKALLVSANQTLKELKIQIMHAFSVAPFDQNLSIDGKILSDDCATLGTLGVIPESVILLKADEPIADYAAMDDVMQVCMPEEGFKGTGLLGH
UniProt Q9H9J4, whole entry, looked up: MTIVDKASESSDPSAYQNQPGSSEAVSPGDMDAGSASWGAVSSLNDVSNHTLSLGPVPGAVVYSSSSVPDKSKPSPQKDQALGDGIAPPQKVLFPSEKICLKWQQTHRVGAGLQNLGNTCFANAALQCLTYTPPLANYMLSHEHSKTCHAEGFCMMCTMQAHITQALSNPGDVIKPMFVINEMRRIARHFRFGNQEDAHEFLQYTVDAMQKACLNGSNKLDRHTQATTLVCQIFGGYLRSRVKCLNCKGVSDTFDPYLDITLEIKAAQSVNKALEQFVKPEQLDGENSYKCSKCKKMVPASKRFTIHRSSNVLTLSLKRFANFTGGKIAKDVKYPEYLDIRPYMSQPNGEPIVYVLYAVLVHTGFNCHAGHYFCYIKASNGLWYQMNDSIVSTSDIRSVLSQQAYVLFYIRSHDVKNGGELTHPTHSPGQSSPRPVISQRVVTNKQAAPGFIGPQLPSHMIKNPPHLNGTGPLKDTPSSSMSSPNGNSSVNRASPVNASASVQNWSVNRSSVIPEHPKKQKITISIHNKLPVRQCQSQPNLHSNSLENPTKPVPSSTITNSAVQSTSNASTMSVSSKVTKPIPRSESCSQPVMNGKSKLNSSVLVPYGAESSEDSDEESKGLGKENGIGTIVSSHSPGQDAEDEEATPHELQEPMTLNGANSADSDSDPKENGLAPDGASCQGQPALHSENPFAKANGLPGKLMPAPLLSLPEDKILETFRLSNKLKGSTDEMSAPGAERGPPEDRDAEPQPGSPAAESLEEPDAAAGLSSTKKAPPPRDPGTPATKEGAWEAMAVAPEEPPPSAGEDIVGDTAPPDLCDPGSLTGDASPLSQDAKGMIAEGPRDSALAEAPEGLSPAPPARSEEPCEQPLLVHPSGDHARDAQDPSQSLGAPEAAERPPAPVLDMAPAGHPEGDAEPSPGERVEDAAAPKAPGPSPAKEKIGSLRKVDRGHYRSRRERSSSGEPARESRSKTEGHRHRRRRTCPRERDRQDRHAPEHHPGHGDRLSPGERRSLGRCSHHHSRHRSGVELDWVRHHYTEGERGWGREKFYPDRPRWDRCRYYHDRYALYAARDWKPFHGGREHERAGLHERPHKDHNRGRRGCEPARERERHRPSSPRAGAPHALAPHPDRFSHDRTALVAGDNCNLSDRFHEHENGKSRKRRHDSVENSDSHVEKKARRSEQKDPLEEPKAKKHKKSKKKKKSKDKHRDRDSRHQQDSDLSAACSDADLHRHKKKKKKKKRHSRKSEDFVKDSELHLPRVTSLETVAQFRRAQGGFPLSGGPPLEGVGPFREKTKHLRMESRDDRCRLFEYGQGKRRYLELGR
UniProt O00487, whole entry, looked up: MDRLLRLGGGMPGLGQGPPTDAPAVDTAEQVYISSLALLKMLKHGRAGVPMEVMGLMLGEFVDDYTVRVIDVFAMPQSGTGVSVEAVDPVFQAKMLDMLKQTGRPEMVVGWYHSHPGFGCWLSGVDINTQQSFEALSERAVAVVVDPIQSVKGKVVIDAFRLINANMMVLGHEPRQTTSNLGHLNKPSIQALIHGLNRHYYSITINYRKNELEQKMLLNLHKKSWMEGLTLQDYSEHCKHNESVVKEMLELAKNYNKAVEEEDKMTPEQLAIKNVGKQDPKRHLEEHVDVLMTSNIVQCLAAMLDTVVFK
UniProt Q01804, whole entry, looked up: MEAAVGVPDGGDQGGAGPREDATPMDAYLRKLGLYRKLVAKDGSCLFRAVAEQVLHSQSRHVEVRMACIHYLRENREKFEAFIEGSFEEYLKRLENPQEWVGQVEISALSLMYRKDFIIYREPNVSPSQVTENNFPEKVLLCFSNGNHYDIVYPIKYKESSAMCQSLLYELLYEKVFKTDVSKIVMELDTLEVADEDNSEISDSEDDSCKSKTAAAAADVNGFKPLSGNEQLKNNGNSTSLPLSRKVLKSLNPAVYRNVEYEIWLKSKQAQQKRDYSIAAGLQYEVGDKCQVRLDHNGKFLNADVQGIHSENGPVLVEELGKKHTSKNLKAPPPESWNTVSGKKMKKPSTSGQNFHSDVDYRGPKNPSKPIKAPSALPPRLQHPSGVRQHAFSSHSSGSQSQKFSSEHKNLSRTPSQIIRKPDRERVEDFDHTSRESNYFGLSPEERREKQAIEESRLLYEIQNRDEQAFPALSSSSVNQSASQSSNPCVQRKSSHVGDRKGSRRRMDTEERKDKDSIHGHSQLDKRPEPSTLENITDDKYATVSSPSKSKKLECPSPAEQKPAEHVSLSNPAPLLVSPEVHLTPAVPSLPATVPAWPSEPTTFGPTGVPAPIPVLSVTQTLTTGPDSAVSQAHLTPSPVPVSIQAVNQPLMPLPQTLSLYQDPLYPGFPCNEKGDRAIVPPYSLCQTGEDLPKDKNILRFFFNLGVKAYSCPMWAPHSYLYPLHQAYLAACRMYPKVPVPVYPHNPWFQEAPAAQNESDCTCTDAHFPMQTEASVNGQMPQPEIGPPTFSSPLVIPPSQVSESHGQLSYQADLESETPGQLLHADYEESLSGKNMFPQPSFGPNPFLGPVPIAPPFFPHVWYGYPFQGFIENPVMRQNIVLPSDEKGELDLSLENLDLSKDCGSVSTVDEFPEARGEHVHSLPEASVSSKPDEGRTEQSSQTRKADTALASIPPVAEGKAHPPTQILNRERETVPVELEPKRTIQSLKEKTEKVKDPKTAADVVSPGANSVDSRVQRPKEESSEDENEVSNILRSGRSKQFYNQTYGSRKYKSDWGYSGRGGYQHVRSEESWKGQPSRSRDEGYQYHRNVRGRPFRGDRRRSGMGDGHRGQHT
UniProt Q13107, whole entry, looked up: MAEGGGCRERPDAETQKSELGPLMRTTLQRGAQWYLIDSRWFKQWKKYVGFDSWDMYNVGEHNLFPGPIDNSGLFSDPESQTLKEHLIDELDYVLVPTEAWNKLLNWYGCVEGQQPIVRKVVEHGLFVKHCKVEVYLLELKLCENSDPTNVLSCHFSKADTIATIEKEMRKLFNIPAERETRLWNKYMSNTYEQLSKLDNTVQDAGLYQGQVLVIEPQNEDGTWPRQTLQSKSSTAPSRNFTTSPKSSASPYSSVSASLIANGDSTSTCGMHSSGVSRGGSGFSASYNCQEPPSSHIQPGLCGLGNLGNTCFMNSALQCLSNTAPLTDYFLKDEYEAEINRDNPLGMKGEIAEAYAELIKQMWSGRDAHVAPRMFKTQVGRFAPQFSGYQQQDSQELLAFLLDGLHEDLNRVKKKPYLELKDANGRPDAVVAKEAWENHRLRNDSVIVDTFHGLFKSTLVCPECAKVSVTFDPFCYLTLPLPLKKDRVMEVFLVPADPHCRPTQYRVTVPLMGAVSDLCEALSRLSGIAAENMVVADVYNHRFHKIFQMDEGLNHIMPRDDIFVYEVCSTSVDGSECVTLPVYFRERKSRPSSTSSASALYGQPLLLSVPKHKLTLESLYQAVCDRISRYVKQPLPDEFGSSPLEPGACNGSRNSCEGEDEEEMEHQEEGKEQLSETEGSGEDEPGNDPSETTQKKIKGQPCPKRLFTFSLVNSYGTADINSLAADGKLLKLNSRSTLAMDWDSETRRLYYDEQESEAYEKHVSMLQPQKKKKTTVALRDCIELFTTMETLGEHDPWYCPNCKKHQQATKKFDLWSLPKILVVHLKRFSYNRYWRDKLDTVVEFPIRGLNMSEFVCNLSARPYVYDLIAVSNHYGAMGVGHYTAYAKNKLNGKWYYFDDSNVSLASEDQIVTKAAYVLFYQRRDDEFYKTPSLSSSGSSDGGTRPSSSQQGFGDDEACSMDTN
UniProt Q70EL1, whole entry, looked up: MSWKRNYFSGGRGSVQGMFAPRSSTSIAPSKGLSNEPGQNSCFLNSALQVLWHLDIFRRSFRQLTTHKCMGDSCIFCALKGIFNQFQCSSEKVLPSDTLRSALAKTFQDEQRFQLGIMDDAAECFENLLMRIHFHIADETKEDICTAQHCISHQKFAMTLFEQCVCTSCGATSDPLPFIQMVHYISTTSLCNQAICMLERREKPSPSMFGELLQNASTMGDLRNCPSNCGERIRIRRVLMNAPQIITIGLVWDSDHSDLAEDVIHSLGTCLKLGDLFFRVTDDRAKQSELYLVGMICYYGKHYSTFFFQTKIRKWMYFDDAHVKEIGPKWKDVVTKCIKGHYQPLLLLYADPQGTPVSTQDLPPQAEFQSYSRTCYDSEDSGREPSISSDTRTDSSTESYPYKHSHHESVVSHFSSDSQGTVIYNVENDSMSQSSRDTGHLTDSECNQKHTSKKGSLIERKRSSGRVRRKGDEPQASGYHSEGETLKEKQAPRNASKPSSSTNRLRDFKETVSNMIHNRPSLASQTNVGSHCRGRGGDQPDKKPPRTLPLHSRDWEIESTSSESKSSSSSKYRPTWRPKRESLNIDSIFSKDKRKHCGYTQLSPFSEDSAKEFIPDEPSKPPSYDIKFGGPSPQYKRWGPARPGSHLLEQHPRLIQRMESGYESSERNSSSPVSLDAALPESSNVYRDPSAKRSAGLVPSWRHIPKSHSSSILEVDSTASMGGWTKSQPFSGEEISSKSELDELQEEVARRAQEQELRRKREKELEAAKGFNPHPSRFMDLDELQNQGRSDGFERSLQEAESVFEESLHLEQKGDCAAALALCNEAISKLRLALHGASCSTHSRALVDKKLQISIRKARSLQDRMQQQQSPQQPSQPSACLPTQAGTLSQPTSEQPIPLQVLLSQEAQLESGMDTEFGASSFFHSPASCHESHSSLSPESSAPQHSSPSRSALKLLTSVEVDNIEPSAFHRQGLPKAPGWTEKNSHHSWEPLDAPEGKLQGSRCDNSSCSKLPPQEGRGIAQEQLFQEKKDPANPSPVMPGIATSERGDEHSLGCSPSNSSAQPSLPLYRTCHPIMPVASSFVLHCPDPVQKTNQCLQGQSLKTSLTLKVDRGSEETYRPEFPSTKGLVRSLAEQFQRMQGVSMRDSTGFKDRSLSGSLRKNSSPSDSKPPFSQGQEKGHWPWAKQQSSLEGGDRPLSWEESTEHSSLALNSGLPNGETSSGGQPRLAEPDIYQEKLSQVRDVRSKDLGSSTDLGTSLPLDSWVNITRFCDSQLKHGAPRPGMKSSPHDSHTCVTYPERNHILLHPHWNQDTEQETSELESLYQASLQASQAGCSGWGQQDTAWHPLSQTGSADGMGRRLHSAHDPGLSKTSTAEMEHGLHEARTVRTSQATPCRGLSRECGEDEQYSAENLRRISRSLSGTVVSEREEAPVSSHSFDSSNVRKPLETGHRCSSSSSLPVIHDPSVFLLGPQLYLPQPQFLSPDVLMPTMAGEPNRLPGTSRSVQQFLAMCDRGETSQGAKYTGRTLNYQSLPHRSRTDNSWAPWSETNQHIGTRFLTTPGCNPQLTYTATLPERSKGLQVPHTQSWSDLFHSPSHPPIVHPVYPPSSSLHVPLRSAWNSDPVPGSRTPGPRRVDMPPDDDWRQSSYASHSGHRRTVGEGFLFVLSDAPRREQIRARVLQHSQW

Compound: CN(C)C1(CNC(=O)CCl)CCCCC1
Experiment: log2 ratio of Biotin-Ahx-Ub-VS probe labelling (fragment/DMSO); higher = less target engagement (more negative = stronger competition), active = hit call of the paper (q ≤ 0.05, log2 ratio ≤ -1)
Settings: compound concentration: 200 uM; treatment time: 3 h
Description: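 Competitive ABPP in HEK293T cell lysate. Lysates were treated with each chloroacetamide fragment at 200 µM for 3 h, then with Biotin-Ahx-Ub-VS (0.5 µM, 1 h), NeutrAvidin-enriched and analysed by diaPASEF LC-MS/MS. Protein LFQ was median-normalised; average log2 ratio is fragment/DMSO from an unpaired t-test (n=3 treated, n=44 DMSO). Hits: q ≤ 0.05, log2 ratio ≤ -1, unique peptides ≥ 2.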

Target	log2 ratio of Biotin-Ahx-Ub-VS probe labelling
UniProt Q9NP73	inactive: 0.248
UniProt O00507	inactive: -0.044
UniProt Q8NB14	inactive: -0.0858
UniProt Q86UV5	inactive: -0.776
UniProt Q9NUU6	inactive: -0.0133
UniProt Q5VVQ6	inactive: -0.206
UniProt Q53GS9	inactive: -0.131
UniProt Q6GQQ9	inactive: -0.525
UniProt P51784	inactive: -0.181
UniProt O15372	inactive: -0.225
UniProt Q8N6M0	inactive: -0.263
UniProt Q9UGI0	inactive: -0.453
UniProt Q96JH7	inactive: -0.681
UniProt Q93008	inactive: -0.289
UniProt P62068	inactive: -0.00152
UniProt Q9UHP3	inactive: -0.472
UniProt Q92560	active: -1.41
UniProt Q9P2H5	inactive: -0.228
UniProt Q9H9J4	inactive: -0.597
UniProt Q9UPU5	inactive: -0.228

Target	log2 ratio of Biotin-Ahx-Ub-VS probe labelling
UniProt P54252	inactive: -0.342
UniProt P15374	inactive: 0.0608
UniProt Q14694	inactive: -0.09
UniProt P40818	inactive: -0.404
UniProt P51665	inactive: -0.233
UniProt P09936	active: -1.37
UniProt O00487	inactive: 0.0229
UniProt Q9Y4E8	inactive: -0.325
UniProt P45974	inactive: -0.211
UniProt Q8TE49	inactive: -0.393
UniProt Q9Y5K5	inactive: -0.424
UniProt Q96K76	inactive: -0.209
UniProt O94966	inactive: -0.0668
UniProt Q70CQ2	inactive: -0.25
UniProt Q01804	inactive: -0.397
UniProt Q13107	inactive: -0.214
UniProt Q70EL1	inactive: 0.529
UniProt Q93009	inactive: -0.341
UniProt O00303	inactive: 0.0544
UniProt Q9Y5T5	inactive: -0.229
